Pooled drug test results. Numbers come from NIAID ChemDB, via PubChem.

Shared fields: growth or infection tests; species: Herpes simplex virus 2; read by: cytopathic effect; endpoint: EC50

ECn: concentration that inhibits the pathogen or its effect by n%.

compound,cell line,strain,result
CCOC(=O)CP(=O)(OC)OC[C@H]1O[C@@H](n2cc(I)c(=O)[nH]c2=O)C[C@@H]1O,VERO,K979,>57.9 µM
CC(=O)Oc1ccc([C@@H]2CC(=O)c3c(cc(OC(C)=O)c(-c4c(OC(C)=O)cc5c(c4OC(C)=O)C(=O)C[C@@H](c4ccc(OC(C)=O)cc4)O5)c3OC(C)=O)O2)cc1,HFF,MS,>4 µg/mL
Oc1cccc(O)c1O,E6SM,G,15 µg/mL
Nc1nc2c(nnn2C[C@H]2CC[C@@H](CO)C2)c(=O)[nH]1,E6SM,G,>200 µg/mL
Cc1cc(O)ccc1O,E6SM,G,120 µg/mL
Nc1nc(N)c2ncn(C[C@H]3CC[C@@H](CO)C3)c2n1,E6SM,G,300 µg/mL
COC(=O)OP(=O)(CO[C@H](CO)Cn1cnc(N)nc1=O)OC(=O)OC,,G strain,0.097 µg/mL
O=C(O)c1cc(O)ccc1O,E6SM,G,20 µg/mL
O=C(O)CP(=O)(O)OC[C@H]1O[C@@H](n2cc(CCCl)c(=O)[nH]c2=O)C[C@@H]1O,VERO,K979,>232 µM
Nc1ncnc2c1ncn2C[C@H](O)CO,PRK,G,>400 µg/mL
C[C@H]1C[C@@H](n2cnc3c(N)ncnc32)[C@H](O)[C@@H]1O,E6SM,G,300 µg/mL
O[C@@H]1[C@@H](OCc2ccccc2)[C@@H](COCc2ccccc2)O[C@H]1n1cnc2cc(Cl)c(Cl)cc21,E6SM,G,>10 µg/mL
Nc1ncnc2c1ncn2[C@@H]1C=C(CO)[C@@H](O)[C@H]1O,PRK,G,10 µg/mL
Nc1ncnc2c1ccn2[C@@H]1O[C@H](CO)[C@H](O)[C@H]1O,PRK,G,0.1 µg/mL
COP(=O)(CC(=O)OC[C@H]1O[C@@H](n2cc(I)c(=O)[nH]c2=O)C[C@@H]1O)OC,VERO,K979,>5.9 µM
O=c1[nH]c(=O)n([C@H]2C[C@H](O)[C@@H](CO)O2)cc1/C=C/Br,E6SM,G,200 µg/mL
Nc1ncnc2c1ncn2C[C@@H](CO)OCP(=O)(O)O,HEL,HS-44,0.04 µg/mL
O=[N+]([O-])c1cc(Cl)c(Cl)cc1[N+](=O)[O-],E6SM,G,>1 µg/mL
Nc1ncnc2c1ncn2C1CC(CO)[C@@H](O)[C@H]1O,PRK,,7 µg/mL
Nc1ccn(C[C@@H](CO)OCP(=O)(O)O)c(=O)n1,HEL,PCV-resistant/A,0.11 µg/mL
Nc1ncnc2c1ccn2[C@H]1C[C@H](O)[C@@H](CO)O1,PRK,G,40 µg/mL
Nc1ncnc2c1ncn2C[C@H](O)CO,PRK,LYONS G 196,≥400 µg/mL
N#Cc1cn([C@@H]2O[C@H](CO)[C@@H](O)[C@@H]2O)c2ncnc(N)c12,PRK,G,2 µg/mL
COc1cc(O)c(CC=C(C)C)c(O)c1C(=O)/C=C/c1ccc(O)cc1,VERO,,1.5 µg/mL
NC(=O)c1csc([C@@H]2O[C@H](CO)[C@@H](O)[C@H]2O)n1,VERO,MS,160 µg/mL
O=c1[nH]c(=O)n([C@H]2C[C@H](O)[C@@H](CO)O2)cc1/C=C/Br,E6SM,G 196 LYONS,1040 µM
OC[C@H]1O[C@@H](n2cnc3cc(Cl)c(Cl)cc32)[C@@H](O)[C@H]1O,E6SM,G,>40 µg/mL
Nc1ncnc2c1ncn2C[C@H](O)CO,PRK,G,>100 µg/mL
Cc1cn([C@H]2C[C@H](O)[C@@H](CO)S2)c(=O)[nH]c1=O,E6SM,G 196 LYONS,0.036 µM
Nc1nc2c(ncn2COCCO)c(=O)[nH]1,VERO,K979,>1.3 µM
Nc1nc2c(ncn2CCC(CO)CO)c(=O)[nH]1,HEL,HS-47,0.35 µg/mL
Nc1nc(Cl)c2ncn(C[C@H]3CC[C@@H](CO)C3)c2n1,E6SM,G,>1 µg/mL
O=c1[nH]c(=O)n([C@H]2C[C@H](O)[C@@H](CO)O2)cc1/C=C/Br,E6SM,LYONS,240 µg/mL
Nc1nc2c(ncn2CCC(CO)CO)c(=O)[nH]1,HEL,ACV-resistant,9 µg/mL
Nc1nc(N)c2ncn(CCOCP(=O)(O)O)c2n1,HEL,HS-47,2 µg/mL
Nc1ncnc2ncn(COCCCl)c12,VERO,G,>128 µg/mL
Nc1ncnc2c1c(Br)cn2[C@@H]1O[C@H](CO)[C@@H](O)[C@H]1O,PRK,,0.2 µg/mL
Cn1cc(NC(=O)c2cc(NC(=O)CN=C(N)N)cn2C)c(C(=O)NCCC(=N)N)c1,PRK,G,≥40 µg/mL
CC(C)[Si]1(C(C)C)OC[C@H]2O[C@@H](n3cnc4cc(Cl)c(Cl)cc43)[C@H](O)[C@H]2O[Si](C(C)C)(C(C)C)O1,E6SM,G,>10 µg/mL
Nc1nccc2c1ncn2[C@@H]1O[C@H](CO)[C@@H](O)[C@H]1O,PRK,,≥40 µg/mL
OC[C@H]1O[C@@H](n2cnc3cc(Cl)c(Cl)cc32)[C@@H](O)[C@@H]1O,E6SM,G,>10 µg/mL
O=c1[nH]c(=O)n([C@H]2C[C@H](O)[C@@H](CO)O2)cc1/C=C/Br,HEL,HS-44,>50 µg/mL
Nc1nccc2c1ncn2[C@@H]1C[C@H](CO)[C@@H](O)[C@H]1O,PRK,G,>400 µg/mL
C[C@H](NP(=O)(N[C@@H](C)C(=O)OC(C)(C)C)OC[C@H]1O[C@@H](n2cnc(C(N)=O)c2N)[C@H](O)[C@@H]1O)C(=O)OC(C)(C)C,HEL,G,>100 µM
O=C(O)Cc1ccc(O)c(O)c1,E6SM,G,9 µg/mL
O=c1[nH]cnc2c1ncn2[C@@H]1C=C(CO)[C@@H](O)[C@H]1O,PRK,G,>400 µg/mL
COC(C)c1cn([C@@H]2O[C@H](CO)[C@@H](O)[C@H]2O)c2ncnc(N)c12,PRK,,40 µg/mL
Nc1ncnc2c1ncn2[C@H]1[C@H](O)[C@H](O)[C@]2(CO)O[C@H]12,PRK,G,2 µg/mL
Nc1nc(=O)n([C@@H]2O[C@H](CO)[C@@H](O)[C@@H]2F)cc1I,HEL,HS-44,7.5 µg/mL
NC(=O)c1ncn([C@@H]2O[C@H](CO)[C@@H](O)[C@H]2O)n1,PRK,G,>400 µg/mL
Nc1nc2c(ncn2COC(CO)CO)c(=O)[nH]1,HEL,PCV-resistant/B,0.08 µg/mL
CCCc1cn([C@H]2C[C@H](O)[C@@H](CO)S2)c(=O)[nH]c1=O,E6SM,G 196 LYONS,0.151 µM

Repeating the final 4 entries:

compound	cell line	strain	result
Nc1nc(=O)n([C@@H]2O[C@H](CO)[C@@H](O)[C@@H]2F)cc1I	HEL	HS-44	7.5 µg/mL
NC(=O)c1ncn([C@@H]2O[C@H](CO)[C@@H](O)[C@H]2O)n1	PRK	G	>400 µg/mL
Nc1nc2c(ncn2COC(CO)CO)c(=O)[nH]1	HEL	PCV-resistant/B	0.08 µg/mL
CCCc1cn([C@H]2C[C@H](O)[C@@H](CO)S2)c(=O)[nH]c1=O	E6SM	G 196 LYONS	0.151 µM

An empty or dashed field is not shown. Conditions beyond the fields shown may differ between rows.